Experiment: Taste test of aqueous suspensions by four tasters
Settings: suspended in water

With CC[C@H]1OC(=O)[C@H](C)[C@@H](O[C@H]2C[C@@](C)(OC)[C@@H](O)[C@H](C)O2)[C@H](C)[C@@H](O[C@@H]2O[C@H](C)C[C@H](N(C)C)[C@H]2O)[C@](C)(OC)C[C@@H](C)C(=O)[C@H](C)[C@@H](O)[C@]1(C)O [6-O-methyl erythromycin A, reference compound] the taste was “extremely bitter”.
